Pooled drug test results. Numbers come from NIAID ChemDB, via PubChem.

Shared fields: tests in culture; agent: HIV-1; read by: MTT; endpoint: EC50

Lines come from different laboratories, so protocols vary. ECn: concentration that inhibits the pathogen or its effect by n%. Blank or dashed fields: not listed here.

smiles	strain or isolate	changes	cell line	value
N#Cc1ccc(Nc2nc(Oc3ccc(-c4ccc(C#N)cc4)cc3[N+](=O)[O-])c3sccc3n2)cc1	IIIB	F227L V106A	MT-4	>40.9 µM
O=C(Cc1ccc(CNCCCN2CCCC2)cc1)NCCCN1CCOCC1			MT-4	>62.1 µM
Cc1ccnc2c1NC(=O)c1cccnc1N2C1CC1	IIIB	Y181C	MT-4	>15.9 µM
Cc1cc(Br)cc(C)c1Oc1ncc([N+](=O)[O-])c(Nc2ccc(C#N)cc2)n1	RES056		MT-4	≥202 µM
CC1CCCCN1CCCNCCc1ccc(CNCCCN2CCCCC2C)cc1			MT-4	0.114 µM
CO/N=C1\C(=O)N(CCOCCN2C(=O)/C(=N/OC)c3ccccc32)c2ccccc21	IIIB		MT-4	>11.97 µM
CCOC(=O)C(=O)CC(=O)c1ccc(Oc2ccnc(Nc3ccc(C#N)cc3)n2)cc1	IIIB	L100I	MT-4	>22 µM
COc1ccc2nc3cc(Cl)ccc3c(NC3CN4CCC3CC4)c2c1			MT-4	>1.9 µM
O=S1(=O)NC(Cc2ccc(Cl)cc2Cl)=CC(=NC2CCN(Cc3ccc(Br)cc3)CC2)N1	IIIB		MT-4	23.28 µM
O=C(Cc1ccc(CC(=O)NCCCN2CCCC2)cc1)NCCCN1CCCC1			MT-4	>156 µM
COc1ccc2nc3cc(Cl)ccc3c(NCCO)c2c1			MT-4	>1.8 µM
Cc1cn([C@H]2C[C@H](N=[N+]=[N-])[C@@H](COC(=O)CCCCC(=O)N[C@H]3CC[C@]4(C)[C@H]5CC=C6[C@@H]7CC(C)(C)CC[C@]7(C(=O)O)CC[C@@]6(C)[C@]5(C)CC[C@H]4C3(C)C)O2)c(=O)[nH]c1=O	IIIB		MT-4	0.013 µg/mL
CCc1c(C(C)CC2CCCCC2)nc(SCC(=O)c2ccccc2)[nH]c1=O	IIIB		MT-4	0.09 µM
c1cc(CNCCCN2CCCCC2)ccc1CNCCCN1CCCCC1			MT-4	0.362 µM
N#Cc1ccc(CN2CCC(N=C3C=C(Cc4ccc(Cl)cc4Cl)NS(=O)(=O)N3)CC2)cc1	RES056	RT-K103N Y181C	MT-4	>101 µM
COc1ccc2nc3cc(Cl)ccc3c(NCC[C@@H]3CCCN4CCCC[C@H]34)c2c1			MT-4	>0.7 µM
N#Cc1ccc(Nc2nccc(Oc3ccc(C(=O)CC(=O)C(=O)O)cc3)n2)cc1	IIIB	K103N	MT-4	>42 µM
C#Cc1ccc(Nc2nccc(Oc3c(C)cc(-c4cn(Cc5ccccc5)nn4)cc3C)n2)cc1	IIIB	F227L and V106A	MT-4	>8.55 µM
Cc1cc(/C=C/C#N)cc(C)c1Oc1ccnc(S(=O)(=O)CC(=O)Nc2ccc(F)cc2)n1			MT-4	0.005 µM
CCO/N=C1\C(=O)N(CCOCCN2C(=O)/C(=N/OCC)c3cc(Cl)ccc32)c2ccc(Cl)cc21	IIIB		MT-4	13.3 µM
CC(=O)Nc1cnc(Oc2c(Br)cc(Br)cc2Br)nc1Nc1ccc(C#N)cc1	RES056		MT-4	>119 µM
COc1ccc2nc3cc(Cl)ccc3c(NCCN3CCOCC3)c2c1			MT-4	>1.8 µM
CC(c1cc(=O)[nH]c(SCC(=O)c2ccc(F)cc2)n1)C1CCCCC1	IIIB		MT-4	7.55 µM
Cc1cn([C@H]2C[C@H](N=[N+]=[N-])[C@@H](CO)O2)c(=O)[nH]c1=O		RES056	MT-4	0.0167 µM
Cc1ccnc2c1NC(=O)c1cccnc1N2C1CC1	IIIB		MT-4	0.072 µM
O=C1C[C@@H](c2ccccc2)Oc2cc(O)cc(O)c21	IIIB		MT-4	>100 µg/mL
Cc1cc(-c2ccc(C#N)cc2)cc(C)c1Oc1nc(Nc2ccc(C#N)cc2)nc2ccsc12	RES056		MT-4	0.1522 µM
Cc1cc(C)c(Oc2ccc([N+](=O)[O-])c(NC3CCN(Cc4ccc(C(N)=O)cc4)CC3)n2)c(C)c1	IIIB	Resistant strain (K103N + Y181C)	MT-4	5.8 µM
COc1ccc(C2CC(=O)c3c(cc(O)c(CC=C(C)C)c3O)O2)c(CC=C(C)C)c1O	IIIB		MT-4	>100 µg/mL
N#Cc1ccccc1CN1CCC(N=C2C=C(Cc3cccc4ccccc34)NS(=O)(=O)N2)CC1	IIIB		MT-4	26.3 µM
Cc1cc(C#N)cc(C)c1Oc1nc(Nc2ccc(C#N)cc2)nc(N)c1Br	IIIB	Y181C	MT-4	0.016 µM
N#Cc1ccc(Nc2nc(Oc3c(Cl)cccc3Cl)ncc2[N+](=O)[O-])cc1	IIIB		MT-4	3.21 µM
N#Cc1ccc(Nc2nccc(Oc3cc4c(cc3Br)c(=O)c(C(=O)O)cn4C3CC3)n2)cc1	IIIB		MT-4	0.98 µM
N#Cc1ccc(Nc2nc(Oc3c(Cl)cc(Cl)cc3Cl)ncc2[N+](=O)[O-])cc1	RES056		MT-4	>25 µM
Cc1ccnc2c1NC(=O)c1cccnc1N2C1CC1	IIIB	K103N	MT-4	>10.1 µM
Cn1cc(C(=O)O)c(=O)c2cc(Br)c(Oc3ccnc(Nc4ccc(C#N)cc4)n3)cc21	IIIB		MT-4	0.087 µM
N#Cc1ccc(CN2CCC(N=C3C=C(Cc4cccc5ccccc45)NS(=O)(=O)N3)CC2)cc1	IIIB		MT-4	31.45 µM
Cc1cc(C)cc(S(=O)(=O)c2c(C(=O)NC(C)C(N)=O)[nH]c3ccc(Cl)cc23)c1		L100I	MT-4	0.009 µM
Cc1ccnc2c1NC(=O)c1cccnc1N2C1CC1	IIIB	K103N	MT-4	12.35 µM
Cc1cc(Br)cc(C)c1Oc1ncc(NC(=O)C(F)(F)F)c(Nc2ccc(C#N)cc2)n1	RES056		MT-4	11 µM
C=C1[C@H](CO)[C@@H](O)C[C@@H]1n1cnc2c(=O)[nH]c(N)nc21	IIIB		MT-4	0.0022 µg/mL
Cc1cc(C#N)cc(C)c1Oc1ncc(N)c(Nc2ccc(C#N)cc2)n1	IIIB		MT-4	0.0025 µM
CC(C)=CCc1c(O)c(CC=C(C)C)c2occ(-c3ccc(O)cc3)c(=O)c2c1O	IIIB		MT-4	>20 µg/mL
Cc1cc(Br)cc(C)c1Oc1ncc(NC(=O)C(F)(F)F)c(Nc2ccc(C#N)cc2)n1	IIIB		MT-4	0.0533 µM
Cc1c(C(C)C2CCCCC2)nc(SCC(=O)c2ccc(O)cc2)[nH]c1=O	IIIB		MT-4	0.05 µM
Cc1cc(C#N)cc(C)c1Oc1ncc(NC(=O)C(F)(F)F)c(Nc2ccc(C#N)cc2)n1	RES056		MT-4	5 µM
CC(C)=CCc1cc([C@@H]2CC(=O)c3c(O)cc(O)cc3O2)cc(O)c1O	IIIB		MT-4	11 µg/mL
Cc1cc(C#N)cc(C)c1Oc1nc(Nc2ccc(C#N)cc2)nc(N)c1Br	IIIB	F227L V106A	MT-4	0.02 µM
Cc1cc(C)c(Nc2ccc([N+](=O)[O-])c(NC3CCN(Cc4ccc(S(N)(=O)=O)cc4)CC3)n2)c(C)c1	IIIB	Resistant strain (K103N + Y181C)	MT-4	>5.9 µM
CCOC(=O)C(=O)CC(=O)c1cccc(Oc2ccnc(Nc3ccc(C#N)cc3)n2)c1	IIIB	K103N + Y181C	MT-4	>13 µM
Cc1cc(C)c(Oc2ncc([N+](=O)[O-])c(Nc3ccc(C#N)cc3)n2)c(C)c1	IIIB		MT-4	0.042 µM
O=C1C(=O)N(CCOCCN2C(=O)C(=O)c3cc(F)ccc32)c2ccc(F)cc21	IIIB		MT-4	32.16 µM
COc1c(CC=C(C)C)c(O)cc2c1C[C@H](c1ccc(O)c(CC=C(C)C)c1O)CO2	IIIB		MT-4	>20 µg/mL
Cc1cc(C#N)cc(C)c1Oc1ncc([N+](=O)[O-])c(Nc2ccc(C#N)cc2)n1	RES056		MT-4	≥10.3 µM
CCc1c(C(C)CC2CCCCC2)nc(SCC(=O)c2ccc(OC)cc2)[nH]c1=O	IIIB		MT-4	0.07 µM
N#Cc1ccc(Nc2nc(Oc3c(Cl)cc(Cl)cc3Cl)ncc2N)cc1	IIIB		MT-4	0.01155 µM
Cc1cn([C@H]2C[C@H](N=[N+]=[N-])[C@@H](CO)O2)c(=O)[nH]c1=O	NLAD8		PM1	0.086 µM
Cc1cc(C#N)cc(C)c1Oc1ncc([N+](=O)[O-])c(Nc2ccc(C#N)cc2)n1	RES056		MT-4	≥274 µM
Oc1cc(O)cc(-c2cc3ccc(O)cc3o2)c1	IIIB		MT-4	7 µg/mL
N#Cc1ccc(Nc2nccc(Oc3cc4c(cc3Br)c(=O)c(C(=O)O)cn4C3CCCCC3)n2)cc1	IIIB	K103N Y181C NNRTI-resistant	MT-4	>3.59 µM
O=C(/C=C/c1ccccc1)c1ccccc1O	IIIB		MT-4	>4 µg/mL
Cc1cc(C#N)cc(C)c1Oc1nc(Nc2ccc(C#N)cc2)nc(N)c1Br	IIIB		MT-4	0.0041 µM
CC(CC1CCCCC1)c1cc(=O)[nH]c(SCC(=O)c2ccc(O)cc2)n1	IIIB		MT-4	1.44 µM
Cc1cc(-c2ccc(C#N)cc2)cc(C)c1Oc1ccnc(S(=O)(=O)CC(=O)Nc2ccc(C#N)cc2)n1	IIIB	Y181C	MT-4	0.026 µM
CCO/N=C1\C(=O)N(CCOCCN2C(=O)/C(=N/OCC)c3ccccc32)c2ccccc21	IIIB		MT-4	21.49 µM
CC(C)=CCc1cc(C2CC(=O)c3c(cc(O)c(CC=C(C)C)c3O)O2)ccc1O	IIIB		MT-4	>25 µg/mL
O=C(Cc1ccc(CC(=O)NCCN2CCCC2)cc1)NCCN1CCCC1			MT-4	10.87 µM
N#Cc1ccccc1CN1CCC(N=C2C=C(Cc3ccc(Cl)cc3Cl)NS(=O)(=O)N2)CC1	RES056	RT-K103N Y181C	MT-4	>121 µM
Cc1cc(C#N)cc(C)c1Oc1nc(Nc2ccc(C#N)cc2)ncc1SCC(=O)N1CCSCC1		Y188L	MT-4	0.1775 µM
C#Cc1ccc(Nc2nccc(Oc3c(C)cc(-c4cn(Cc5cccc([N+](=O)[O-])c5)nn4)cc3C)n2)cc1	IIIB	F227L and V106A	MT-4	>101 µM
CCCCn1cc(C(=O)O)c(=O)c2cc(Br)c(Oc3ccnc(Nc4ccc(C#N)cc4)n3)cc21	IIIB		MT-4	0.018 µM
C#Cc1ccc(Nc2nccc(Oc3c(C)cc(-c4cn(Cc5ccc([N+](=O)[O-])cc5)nn4)cc3C)n2)cc1	RES056		MT-4	>160 µM
Cc1cc(C)c(Oc2ccc([N+](=O)[O-])c(NC3CCN(Cc4ccc(S(C)(=O)=O)cc4)CC3)n2)c(C)c1	IIIB		MT-4	0.018 µg/mL

Again, the opening 6 rows:

{"smiles": "N#Cc1ccc(Nc2nc(Oc3ccc(-c4ccc(C#N)cc4)cc3[N+](=O)[O-])c3sccc3n2)cc1", "strain or isolate": "IIIB", "changes": "F227L V106A", "cell line": "MT-4", "value": ">40.9 µM"}
{"smiles": "O=C(Cc1ccc(CNCCCN2CCCC2)cc1)NCCCN1CCOCC1", "cell line": "MT-4", "value": ">62.1 µM"}
{"smiles": "Cc1ccnc2c1NC(=O)c1cccnc1N2C1CC1", "strain or isolate": "IIIB", "changes": "Y181C", "cell line": "MT-4", "value": ">15.9 µM"}
{"smiles": "Cc1cc(Br)cc(C)c1Oc1ncc([N+](=O)[O-])c(Nc2ccc(C#N)cc2)n1", "strain or isolate": "RES056", "cell line": "MT-4", "value": "≥202 µM"}
{"smiles": "CC1CCCCN1CCCNCCc1ccc(CNCCCN2CCCCC2C)cc1", "cell line": "MT-4", "value": "0.114 µM"}
{"smiles": "CO/N=C1\\C(=O)N(CCOCCN2C(=O)/C(=N/OC)c3ccccc32)c2ccccc21", "strain or isolate": "IIIB", "cell line": "MT-4", "value": ">11.97 µM"}